Compound potency records, mixed from different reports. Data source: NIAID ChemDB in PubChem.

Common to all: growth or infection tests; species: HIV-1

Rows are shuffled and stem from different studies. An empty or dashed field is not shown. ECn is the concentration giving n% inhibition of infection, replication or growth.

smiles | strain or isolate | measure | cells | mutations | method | value
CCOCn1c(Sc2ccccc2)c(CC)c(=O)[nH]c1=S | IIIB PYR(RT-Y181C) | EC50 | CEM | RT-Y181C | syncytia | 0.53 µg/mL
CC(C)(C)NC(=O)[C@@H]1CN(Cc2cccnc2)CCN1C[C@@H](O)C[C@@H](Cc1ccccc1)C(=O)N[C@H]1c2ccccc2C[C@H]1O | - | EC50 | MAGI | - | β-galactosidase | >5 µg/mL
Nc1ccn([C@H]2CC[C@@H](CO)O2)c(=O)n1 | HXB2-D184 (RT-M184V) | EC50 | MT-4 | RT-M184V | RT activity | 2.4 µM
CC(C)=CCN1Cc2cc(Cl)cc3[nH]c(=S)n(c23)C[C@@H]1C | - | EC95 | MT-4 | RT-K70R K101E | - | >3 µM
CCCc1cc(=O)oc2c3c(c4c(c12)OC(C)(C)C=C4)O[C@@H](C)[C@H](C)[C@@H]3O | CLADE B | EC50 | PBMC | - | RT activity | 0.2 µM
COc1ccc(S(=O)(=O)c2ccccc2[N+](=O)[O-])cc1 | RF | EC50 | CEM + CEM-SS | - | cytopathic effect / XTT | 22 µM
Cc1cc(C)c(-n2nnnc2SCC(=O)Nc2ccc([N+](=O)[O-])cc2Cl)c(C)c1 | - | EC95 | MT-4 | - | p24 | <10 µM
CCCc1cc(=O)oc2c3c(c4c(c12)OC(C)(C)C=C4)O[C@H](C)[C@@H](C)[C@@H]3O | CLADE B | EC50 | PBMC | - | RT activity | 0.2 µM
CCCCCCCCCCCCCCCCCCCCCCC(=O)O[C@@H]1[C@@H](C)[C@@]2(O)[C@@H](C=C(COC(C)=O)C[C@]3(O)C(=O)C(C)=C[C@@H]23)[C@@H]2C(C)(C)[C@]12O | RF | EC50 | C8166 | PI-resistant (V82F I84V) | p24 / ELISA | 0.396 µM
CC(C)(C)OC(=O)N[C@@H](Cc1ccccc1)[C@H](O)CNC[C@@H](O)[C@H](Cc1ccc(OCC(=O)N2CCOCC2)cc1)NC(=O)OC(C)(C)C | NL4-3 | EC50 | MT-2 | PR-A71T | p24 | 0.04 µM
CN(C)C(=O)C(c1ccccc1)(c1ccccc1)[C@H]1CCCN(CCc2ccc3c(c2)CCO3)C1 | NL4-3 | EC50 | MT-2 | - | cytopathic effect / XTT | 3.8 µM
Cc1cn([C@H]2C[C@H](N=[N+]=[N-])[C@@H](CO)O2)c(=O)[nH]c1=O | ADA | EC50 | MM + M/M | - | p24 | 0.01 µM
COC(=O)c1ccccc1NC(=O)CSc1nnnn1-c1cccc2ccccc12 | - | EC95 | MT-4 | - | p24 | <10 µM
Cc1ccnc2c1NC(=O)c1cccnc1N2C1CC1 | LAI | EC50 | H9 | - | p24 | 0.028 µM
Cc1cn([C@H]2C[C@H](N=[N+]=[N-])[C@@H](CO)O2)c(=O)[nH]c1=O | - | EC50 | PBMC | RT-L74V T215Y K219Q | p24 | 0.004 µM
[NH4+] | IIIB | EC50 | C8166 | - | antigen | >100 µg/mL
Cc1ccnc2c1NC(=O)c1cccnc1N2C1CC1 | IIIB TIBO R82913-resistant (RT K103N) | EC50 | CEM | RT-K103N | syncytia | 1.5 µg/mL
O=c1[nH]cnc2c1ncn2[C@H]1CC[C@@H](CO)O1 | 263)(ddC | EC50 | MT-4 | - | p24 | 15.8 µM
CC(C)(C)NC(=O)[C@@H]1C[C@@H]2CCCC[C@@H]2CN1C[C@@H](O)[C@H](Cc1ccccc1)NC(=O)[C@H](CC(N)=O)NC(=O)c1ccc2ccccc2n1 | RF | EC50 | MT-2 | - | p24 | 0.002 µM
CNc1cccc(CN2C(=O)N(Cc3cccc(NC)c3)[C@H](Cc3ccccc3)[C@H](O)[C@H]2CCc2ccccc2)c1 | RF | EC50 | MT-2 | - | cytopathic effect / MTT | <0.328 µM
CNc1ccc(Cl)cc1S(=O)(=O)c1ccccc1[N+](=O)[O-] | ROJO | EC50 | PBMC | - | XTT | 0.1 µM
COc1ncccc1NC(=O)CSc1nnnn1-c1c(C)cc(C)cc1C | - | EC50 | MT-4 | - | p24 | <10 µM
O=c1[nH]cnc2c1ncn2[C@H]1CC[C@@H](CO)O1 | H9/HTLV-IIIB | EC50 | PBMC | - | p24 | 2.2 µM
NC(=O)c1cccc(CN2C(=O)N(Cc3cccc(N)c3)[C@H](Cc3ccccc3)[C@H](O)[C@H]2CCc2ccccc2)c1 | RF | EC50 | MT-2 | - | cytopathic effect / MTT | <0.024 µM
CC(C)(C)C(=O)SCCOP(=O)(OCCSC(=O)C(C)(C)C)OC[C@@H]1CC[C@H](n2cnc3c(N)ncnc32)O1 | LAI | EC50 | CEM + CEM-SS | - | RT activity | 0.0002 µM
Cc1cc(C)c(-n2nnnc2SCC(=O)Nc2ccc(Cl)nc2Cl)c(C)c1 | - | EC50 | MT-4 | - | p24 | <10 µM
NC(=O)C(c1ccccc1)(c1ccccc1)[C@H]1CCCN(CCc2ccc3c(c2)CCO3)C1 | NL4-3 | EC50 | PM1 | - | p24 | 2.6 µM
Cc1cn([C@H]2C[C@H](N=[N+]=[N-])[C@@H](COP(=O)(OCCSC(=O)C(C)(C)C)OCCSC(=O)C(C)(C)C)O2)c(=O)[nH]c1=O | LAI | EC50 | CEM + CEM TK- | - | RT activity | 0.011 µM
Nc1ncnc2c1ncn2CCOCP(=O)(O)O | HXB2D | EC50 | PBMC | - | p24 | 0.8 µM
CCc1cc(NCc2nc3c(Cl)ccc(Cl)c3o2)c(=O)[nH]c1C | IIIB TIBO R82913-resistant (RT K103N) | EC50 | CEM | RT-K103N | syncytia | 0.5 µg/mL
O=[N+]([O-])c1ccccc1S(=O)(=O)Oc1ccc(Cl)cc1 | RF | EC50 | CEM + CEM-SS | - | cytopathic effect / XTT | 3.7 µM
Cc1c(Sc2ccccc2)n(COCCO)c(=O)[nH]c1=O | IIIB NEV(RT-V106A) | EC50 | CEM | RT-V106A | syncytia | 90 µg/mL
O=[N+]([O-])c1ccccc1S(=O)(=O)c1ccccc1 | WEJO | EC50 | PBL | - | - | 15.9 µM
O=C(CSc1nnnn1-c1cccc2ccccc12)Nc1ccccn1 | - | EC95 | MT-4 | - | p24 | <10 µM
CCNc1cccnc1N1CCN(C(=O)c2cc3cc(OC)ccc3[nH]2)CC1 | IIIB HEPT-resistant (RT Y188H) | EC50 | CEM | RT-Y188H | syncytia | 0.35 µg/mL
O=[N+]([O-])c1ccccc1S(=O)(=O)c1ccccc1[N+](=O)[O-] | RF | EC50 | CEM + CEM-SS | - | cytopathic effect / XTT | 0.89 µM
O=C(CSc1nnnn1-c1ccccc1Br)Nc1ccccc1Cl | - | EC50 | MT-4 | - | p24 | <10 µM
O=c1[nH]cnc2c1ncn2[C@H]1CC[C@@H](CO)O1 | - | EC50 | PBMC | RT-L74V T215Y K219Q | p24 | 4 µM
CNc1ccc(S(=O)(=O)c2ccccc2[N+](=O)[O-])cc1C | IIIB | EC50 | CEM + CEM-SS | - | XTT | 0.2 µM
Nc1n[nH]c2ccc(CN3C(=O)N(Cc4ccc5[nH]nc(N)c5c4)[C@H](Cc4ccccc4)[C@H](O)[C@H]3CCc3ccccc3)cc12 | RF | EC50 | MT-2 | - | cytopathic effect / MTT | <0.383 µM
Cc1cc(C)c(-n2nnnc2SCC(=O)Nc2cccc3ncccc23)c(C)c1 | - | EC95 | MT-4 | - | p24 | <10 µM
NC(=O)C(c1ccccc1)(c1ccccc1)C1CCCN(CCOCc2ccccc2)C1 | NL4-3 | EC50 | MT-2 | - | cytopathic effect / XTT | 5.6 µM
Cc1cn([C@H]2C[C@H](N=[N+]=[N-])[C@@H](COP(=O)(OCCCCSC(=O)C(C)(C)C)OCCCCSC(=O)C(C)(C)C)O2)c(=O)[nH]c1=O | LAI | EC50 | CEM + CEM-SS | - | RT activity | 1 µM
Cc1ccnc2c1NC(=O)c1cccnc1N2C1CC1 | NL4-3 | EC50 | CEM + CEM-SS | RT-K103N | XTT | >2 µM
N/C(=N/O)c1cc(CN2C(=O)N(Cc3ccc(F)c(/C(N)=N\O)c3)[C@H](Cc3ccccc3)[C@H](O)[C@H]2CCc2ccccc2)ccc1F | RF | EC50 | MT-2 | - | cytopathic effect / MTT | <0.051 µM
Cc1cc(C)c(-n2nnnc2SCC(=O)Nc2ccccc2I)c(C)c1 | - | EC50 | MT-4 | - | p24 | <10 µM